Measured values from several laboratories, pooled; numbers as filed in NIAID ChemDB.

Common to all: enzyme or target tests; organism: HIV-1; target: Protease; read-out: IC50

ICn: concentration for n% inhibition. Blank or dashed fields: not listed here. Conditions beyond the fields shown may differ between rows. a–b is a range or a potency band.

compound | strain or isolate | changes | read by | setting | result
CCOP(=O)(C(Cc1ccccc1)NC(=O)[C@@H](NC(=O)OCc1ccccc1)C(C)C)C(Cc1ccccc1)NC(=O)[C@@H](NC(=O)OCc1ccccc1)C(C)C | - | - | - | - | >10 µM
CC(C)(C)NC(=O)[C@@H]1CCCN1C(=O)[C@@H](O)[C@H](Cc1ccccc1)NC(=O)[C@H](CC(N)=O)NC(=O)c1ccc2ccccc2n1 | - | - | - | - | <0.05 µM
CC(C)CC(SC1CCCC1)c1c(O)cc(-c2ccccc2)oc1=O | - | - | - | - | 0.055 µM
CC(C)C[C@H](NC(=O)CCCCCCCCCC(=O)N[C@@H](CC(N)=O)C(=O)N[C@@H](Cc1ccccc1)C(=O)O)C(=O)N[C@@H](Cc1ccccc1)C(N)=O | - | - | fluorescence | - | 101 µM
COc1cc(O)c2c(=O)c3cc4c(c(O)c3oc2c1)OC(C)(C)C=C4 | - | - | substrate cleavage | - | >100 µg/mL
O=c1oc2ccccc2c(O)c1Cc1c(O)c2ccccc2oc1=O | - | - | - | - | >100 µM
[O]=[V](=[O])[O-] | - | - | fluorescence | - | 1–20 µM
O=C(OCC1OC(OCCc2ccccc2)C(O)C(O)C1O)c1cc(O)c(O)c(O)c1 | - | - | - | - | >200 µg/mL
COC(=O)[C@@H](NC(=O)[C@@H](NC(=O)[C@@H](Cc1ccccc1)NC(=O)N[C@H](Cc1ccccc1)NC(=O)[C@H](C)NC(=O)[C@H](C)N)C(C)C)C(C)C | - | - | fluorescence | - | 47 µM
CC(C)C[C@H](NC(=O)[C@@H](NC(=O)CCCCCCCCCCCCCCC(=O)N[C@@H](CC(N)=O)C(=O)N[C@@H](CCc1ccccc1)C(=O)O)C(C)O)C(=O)N[C@@H](Cc1ccccc1)C(N)=O | - | - | HPLC | - | 4.4 µM
O=C1N(CC2CC2)[C@H](Cc2ccccc2)[C@H](O)CN(Cc2ccccc2)N1CC1CC1 | - | - | fluorescence | - | 0.0013 µM
CC(C)C[C@H](NC(=O)[C@@H](NC(=O)CCCCCCCCCCCCCCC(=O)N[C@@H](CC(N)=O)C(=O)N[C@@H](Cc1ccccc1)C(=O)O)C(C)C)C(=O)N[C@@H](Cc1ccccc1)C(N)=O | - | - | HPLC | - | 1.3 µM
CCNC(=O)[C@H](NC(=O)Cc1ccccc1)[C@@H]1N[C@@H](C(=O)NCCNC(=O)[C@@H]2N[C@@H]([C@@H](NC(=O)Cc3ccccc3)C(=O)NCC)SC2(C)C)C(C)(C)S1 | RF | - | radiometric | - | 1.3 µM
CC(C)[C@H](NS(=O)(=O)N(C)Cc1ccccn1)C(=O)N[C@@H](Cc1ccccc1)[C@H](O)[C@@H](O)[C@H](Cc1ccccc1)NC(=O)[C@@H](NS(=O)(=O)N(C)Cc1ccccn1)C(C)C | - | - | fluorescence | - | <0.05 µM
CC(C)(C)NC(=O)[C@@H]1C[C@@H]2CCC[C@@H]2N1C(=O)[C@@H](O)[C@H](Cc1ccccc1)NC(=O)[C@H](CC(N)=O)NC(=O)OCc1ccccc1 | BRU | - | substrate cleavage | - | 0.0023 µM
CC[C@H](C)[C@H](NC(=O)[C@@H]1CCCN1C(=O)[C@H](O)[C@H](Cc1ccccc1)NC(=O)[C@H](CC(N)=O)NC(=O)[C@H](Cc1ccccc1)NC(=O)[C@@H](N)CO)C(=O)N[C@H](C(N)=O)C(C)C | - | - | - | - | <5 µM
CC(C)C[C@H](NC(=O)[C@@H](NC(=O)CCCCCCCCCCCCCCC(=O)N[C@@H](CC(N)=O)C(=O)N[C@@H](Cc1ccccc1)C(=O)O)C(C)O)C(=O)N[C@@H](Cc1ccccc1)C(N)=O | - | - | HPLC | - | 5.5 µM
CC(C)[C@@H](C(=O)N[C@@H](Cc1ccccc1)C[C@H](O)[C@H](Cc1ccccc1)NC(=O)OCc1cncs1)N1CCCNC1=O | - | - | fluorescence | - | <0.0005 µM
CC[C@@]1(O)C(=O)OCc2c1cc1n(c2=O)Cc2c-1nc1ccccc1c2CO | - | - | fluorescence | - | >40 µg/mL
CC(C)[C@H](NC(=O)OCc1ccccc1)C(=O)N[C@@H](Cc1ccccc1)C(O)[C@H](Cc1ccccc1)NC(=O)[C@@H](NC(=O)OCc1ccccc1)C(C)C | - | - | HPLC | - | 0.025 µM
CC[C@H](C)[C@H](NC(=O)[C@@H](NC(=O)CCCCCCCCCCCCCCC(=O)N[C@@H](CC(N)=O)C(=O)N[C@@H](CC1CCCCC1)C(=O)O)C(C)O)C(=O)N[C@@H](Cc1ccccc1)C(N)=O | - | - | HPLC | - | 0.77 µM
Cc1cc(SC2=C(O)CC(CCc3ccncc3)(C(C)C)OC2=O)c(C(C)(C)C)cc1CO | - | - | HPLC | - | 0.00015 µM
O=C(CCc1ccccc1)C(F)Cc1ccccc1 | - | - | fluorescence | - | <270 µM
O=C1N(Cc2ccc(O)cc2)[C@H](Cc2ccccc2)[C@H](O)CN(Cc2ccccc2)N1Cc1ccc(O)cc1 | - | - | fluorescence | - | 0.0013 µM
CC(C)[C@H](NC(=O)N(C)Cc1ccccn1)C(=O)N[C@@H](Cc1ccccc1)[C@H](O)CNC[C@@H](O)[C@H](Cc1ccccc1)NC(=O)OC(C)(C)C | - | - | HPLC | pH 5.5 | <10 µM
CC(C)[C@H](NC(=O)c1ccc2ccccc2n1)C(=O)N[C@@H](Cc1ccccc1)[C@H](O)CN1CC[C@@H](OCc2ccncc2)C[C@H]1C(=O)NC(C)(C)C | - | - | substrate cleavage / HPLC | - | 0.004 µM
CN(C)c1ccc(CNC(=O)[C@@H](NC(=O)Cc2ccccc2)[C@@H]2N[C@@H](C(=O)NC[C@@H](O)CN3C[C@H]4CCCC[C@H]4C[C@H]3C(=O)NC(C)(C)C)C(C)(C)S2)cc1 | RF | - | - | - | 0.0236 µM
Cc1cc(SC2=C(O)CC(CCc3ccc(O)cc3)(C3CC3)OC2=O)c(C(C)(C)C)cc1CO | - | - | HPLC / absorbance | - | 0.001 µM
CC(C)(C)NC(=O)[C@@H]1C[C@@H]2CCCC[C@@H]2N1C(=O)[C@@H](O)[C@H](Cc1ccccc1)NC(=O)[C@H](CC(N)=O)NC(=O)COc1ccccc1 | BRU | - | substrate cleavage | - | 0.0019 µM
CC(C)N(CC(=O)N(Cc1ccccc1)CC(O)CN(Cc1ccccc1)C(=O)CN(C(=O)CN(C(=O)OCc1ccccc1)C(C)C)C(C)C)C(=O)CN(C(=O)OCc1ccccc1)C(C)C | - | - | - | - | 10 µM
CC(C)[C@H](NC(=O)OCCN1CCCC1)C(=O)N[C@@H](Cc1ccccc1)[C@@H](O)[C@H](Cc1ccccc1)NC(=O)[C@@H](NC(=O)OCc1ccccc1)C(C)C | - | - | fluorescence | - | >0.005 µM
CC(C)(C)NC(=O)[C@@H]1C[C@@H]2CCCC[C@@H]2N1C(=O)[C@@H](O)[C@H](Cc1ccccc1)NC(=O)[C@H](CC(N)=O)NC(=O)c1ccc2ccccc2n1 | BRU | - | substrate cleavage | - | 0.0013 µM
CC(C)C[C@H](NC(=O)[C@@H](NC(=O)CCCCCCCCCCCCCCC(=O)N[C@@H](Cc1ccc(N)cc1)C(=O)N[C@@H](Cc1ccccc1)C(=O)O)C(C)O)C(=O)N[C@@H](Cc1ccccc1)C(N)=O | - | - | HPLC | - | 0.6 µM
CC(C)N(CC(=O)N(Cc1ccccc1)CC(O)CN(Cc1ccccc1)C(=O)CN(C(=O)CN(C(=O)CCC(=O)O)C(C)C)C(C)C)C(=O)CN(C(=O)CCC(=O)O)C(C)C | - | - | - | - | 10 µM
CO/N=C(/C(=O)N[C@@H](Cc1ccccc1)[C@H](O)CNC[C@@H](O)[C@H](Cc1ccccc1)NC(=O)OC(C)(C)C)C(C)(C)C | - | - | HPLC | pH 5.5 | >10 µM
CC(C)C[C@H](NC(=O)[C@@H](NC(=O)CCCCCCCCCCCCCCC(=O)N[C@@H](CC(N)=O)C(=O)N[C@@H](Cc1cccc2ccccc12)C(=O)O)C(C)O)C(=O)N[C@@H](Cc1ccccc1)C(N)=O | - | - | HPLC | - | 2.9 µM
CCCCC1(c2ccccc2)CC(O)=C(SCCc2ccccc2)C(=O)O1 | - | - | HPLC | pH 4.7 | 0.4 µM
CC(C)(C)CC(=O)N[C@H](Cc1ccccc1)[C@H](O)CN1C[C@H]2CCCC[C@H]2C[C@H]1C(=O)NC(C)(C)C | - | - | - | - | 0.75 µM
O=C(/C=C/c1ccc(O)cc1)OC[C@H]1O[C@@H](Oc2c(-c3ccc(O)cc3)oc3cc(O)cc(O)c3c2=O)[C@H](O)[C@@H](O)[C@@H]1O | - | - | - | - | >200 µg/mL
CSCC[C@H](NC(=O)CCCCCCCCCCCCCCC(=O)N[C@@H](CC(N)=O)C(=O)N[C@@H](Cc1ccccc1)C(=O)O)C(=O)N[C@@H](CC(C)C)C(=O)N[C@@H](Cc1ccccc1)C(N)=O | - | - | HPLC | - | 1.2 µM
CC(C)(C)NC(=O)[C@@H]1CN(Cc2cnc3occc3c2)CCN1C[C@@H](O)C[C@@H](Cc1ccccc1)C(=O)N[C@H]1c2ccccc2C[C@H]1O | - | - | HPLC | - | 0.00027 µM
CC(C)C[C@H](NC(=O)[C@@H](NC(=O)CCCCCCCCCCCCCCC(=O)N[C@@H](Cc1ccc(N)cc1)C(=O)N[C@@H](Cc1ccccc1)C(=O)O)C(C)O)C(=O)N[C@@H](Cc1cc(I)c(Oc2cc(I)c(O)c(I)c2)c(I)c1)C(N)=O | - | - | HPLC | - | 0.24 µM
CC(C)CN(C[C@@H](O)[C@H](Cc1ccccc1)NC(=O)[C@H](CC(N)=O)NC(=O)c1ccc2ccccc2n1)C(=O)NC(C)(C)C | - | - | HPLC | - | 0.004 µM
CC(C)(C)OC(=O)N1CCC[C@H]1[C@H](O)CNC[C@H](O)[C@@H]1CCCN1C(=O)OC(C)(C)C | - | - | HPLC | pH 5.5 | >10 µM
CC(C)NC(=O)[C@@H]1C[C@@H]2CCCC[C@@H]2N1C(=O)[C@@H](O)[C@H](Cc1ccccc1)NC(=O)[C@@H](NC(=O)COc1cccc2ccccc12)C(C)C | BRU | - | substrate cleavage | - | 0.0036 µM
CC(C)CN(C[C@@H](O)[C@H](Cc1ccccc1)NC(=O)[C@H](CC(N)=O)NC(=O)c1ccc2ccccc2n1)C(=O)NC(C)(C)C | - | PR-A71T | HPLC | - | 0.0022 µM
CC(C)C[C@H](NC(=O)[C@@H](NC(=O)CCCCCCCCCCCCCCC(=O)N[C@@H](CC(N)=O)C(=O)N[C@@H](Cc1cccc2ccccc12)C(=O)O)C(C)O)C(=O)N[C@H](C(N)=O)C1CCCCC1 | - | - | HPLC | - | 0.31 µM
CC(=O)N[C@@H](CC(C)C)C(=O)N[C@@H](Cc1ccccc1)C(O)=C(C#N)C#N | - | - | HPLC | - | >400 µM
CC(C)(C)NC(=O)[C@@H]1C[C@@H]2CCCC[C@@H]2CN1C[C@@H](O)[C@@H](Cc1ccccc1)C(=O)NCc1ccccc1 | - | - | - | - | 0.087 µM
CC(C)[C@H](NC(=O)c1ccc2ccccc2n1)C(=O)N[C@@H](Cc1ccccc1)[C@H](O)C(=O)N1CCC[C@H]1C(=O)NC(C)(C)C | BRU | - | substrate cleavage | - | 0.0043 µM
O=C1OC(c2ccccc2)(c2ccccc2)CC(O)=C1SCc1ccccc1 | - | - | substrate cleavage | - | 0.11 µM
C=C(C)C1CC[C@]2(C)C(CC=C3C4[C@H](C)[C@@H](C)CC[C@]4(C)CC[C@]32C)[C@@]1(C)CCC(=O)O | - | - | substrate cleavage / fluorescence | - | 360 µg/mL
CC(C)(C)NC(=O)[C@@H]1C[C@@H]2CCCC[C@@H]2CN1C[C@@H](O)[C@@H](Cc1ccccc1)C(=O)NC1c2ccccc2C[C@H]1O | - | - | - | - | 0.12 µM
CC(C)(C)OC(=O)N[C@@H](Cc1ccccc1)[C@@H](O)C[C@@H](Cc1ccccc1)C(=O)N[C@H]1c2ccccc2[C@@H](O)[C@H]1O | - | - | - | - | 0.0001 µM
O=c1oc2c(O)c(O)cc3c(=O)oc4c(O)c(O)cc1c4c23 | - | - | substrate cleavage / fluorescence | - | 9 µg/mL

Repeating the first 6 entries:

compound	strain or isolate	changes	read by	setting	result
CCOP(=O)(C(Cc1ccccc1)NC(=O)[C@@H](NC(=O)OCc1ccccc1)C(C)C)C(Cc1ccccc1)NC(=O)[C@@H](NC(=O)OCc1ccccc1)C(C)C	-	-	-	-	>10 µM
CC(C)(C)NC(=O)[C@@H]1CCCN1C(=O)[C@@H](O)[C@H](Cc1ccccc1)NC(=O)[C@H](CC(N)=O)NC(=O)c1ccc2ccccc2n1	-	-	-	-	<0.05 µM
CC(C)CC(SC1CCCC1)c1c(O)cc(-c2ccccc2)oc1=O	-	-	-	-	0.055 µM
CC(C)C[C@H](NC(=O)CCCCCCCCCC(=O)N[C@@H](CC(N)=O)C(=O)N[C@@H](Cc1ccccc1)C(=O)O)C(=O)N[C@@H](Cc1ccccc1)C(N)=O	-	-	fluorescence	-	101 µM
COc1cc(O)c2c(=O)c3cc4c(c(O)c3oc2c1)OC(C)(C)C=C4	-	-	substrate cleavage	-	>100 µg/mL
O=c1oc2ccccc2c(O)c1Cc1c(O)c2ccccc2oc1=O	-	-	-	-	>100 µM